Pooled drug test results. Numbers come from NIAID ChemDB, via PubChem.

Common to all: target-level tests; organism: Hepatitis C virus; target: RNA-dependent RNA polymerase; endpoint: IC50

Two numbers with a dash give a range or band. Rows are shuffled and stem from different studies. ICn is the concentration giving n% inhibition.

SMILES	result
Cc1ccc(C(=O)NN2CCOCC2)c(Nc2ccc3cn[nH]c3c2)n1	<0.01 µg/mL
COc1cc(C)c(S(=O)(=O)N(Cc2cccc(-c3cc4ccccc4o3)c2)[C@H](Cc2ccccc2)C(=O)O)c(C)c1C	<5 µM
CC(C)c1c(-c2ccc(OCc3ccccc3)cc2)cnc2c(C(=O)O)cnn12	>10 µM
Oc1ccc(/C=N\N2CCOCC2)c(O)c1O	30–40 µM
CC(C)C[C@@]1(C(=O)O)C=C(C(=O)NCCC(N)=O)[C@H](c2nccs2)N1C(=O)c1ccc(C(C)(C)C)cc1	<50 µM
Cc1ccc(C(=O)NCc2cccnc2)c(Nc2ccc3[nH]ncc3c2)n1	<1 µg/mL
COc1cc(C(=O)N2[C@@H](c3nccs3)[C@@H](C#N)C[C@@]2(CC(C)C)C(=O)O)ccc1C(C)(C)C	<10 µM
CC(C)C[C@@]1(C(=O)O)C=C(C(=O)NCCC(=O)O)[C@H](c2nccs2)N1C(=O)c1ccc(C(C)(C)C)cc1	<50 µM
CCN(CC)c1ncc(CN(C(=O)c2ccc(Cl)cc2Cl)[C@@H](Cc2ccccc2)C(=O)O)s1	<5 µM
O=C(N[C@@H](Cc1c[nH]c2ccc(O)cc12)C(=O)O)c1cnn2c(C3CCCCC3)c(-c3ccc(F)cc3)cnc12	<1 µM
Cc1noc([C@@H]2C[C@@](CC(C)C)(C(=O)O)N(C(=O)c3ccc(C(C)(C)C)c(Br)c3)[C@H]2c2ccccn2)n1	<50 µM
O=C(O)c1c[nH]n2c(=O)cc(-c3ccccc3Cl)nc12	>10 µM
C[N+]1(Cc2ccccc2)CCN(/N=C\c2cc(O)c(O)c(O)c2)CC1	10 µM
CC(C)C[C@@]1(C(=O)O)C=C(C(=O)NCc2ccccc2)[C@H](c2nccs2)N1C(=O)c1ccc(C(C)(C)C)cc1	<50 µM
COc1cc(C(=O)N2[C@@H](c3cccs3)[C@H](c3noc(C)n3)C[C@@]2(CC(C)C)C(=O)O)ccc1C(C)(C)C	<50 µM
O=C(N[C@@H](C(=O)O)c1ccc(O)cc1)c1cnn2c(C3CCCCC3)c(-c3ccc(F)cc3)cnc12	<1 µM
CC(C)C[C@@]1(C(=O)O)C=C(C(=O)O)[C@H](c2nccs2)N1C(=O)c1ccc(C(C)(C)C)c(Br)c1	<50 µM
CC(C)C[C@@]1(C(=O)O)C[C@@H](c2ncno2)[C@H](c2ccccn2)N1C(=O)c1ccc(C(C)(C)C)cc1	<50 µM
Cc1ccc(C(=O)Nc2cccnc2)c(Nc2ccc3cn[nH]c3c2)n1	<1 µg/mL
CC(C)C[C@@]1(C(=O)O)C=C(C(N)=O)[C@H](c2nccs2)N1C(=O)c1ccc(C(C)(C)C)cc1	<50 µM
CC(C)C[C@@]1(C(=O)O)C[C@H](C#N)[C@H](c2nccs2)N1C(=O)c1ccc(C(C)(C)C)cc1	<10 µM
Cc1nc([C@H]2C[C@@](CC(C)C)(C(=O)O)N(C(=O)c3ccc(C(C)(C)C)cc3)[C@H]2c2nccs2)no1	<50 µM
C[N+]1(C)CCN(/N=C\c2cc(O)c(O)c(O)c2)CC1	10 µM
COc1cc(C(=O)N2[C@@H](c3nccs3)[C@](C)(C#N)C[C@@]2(CC(C)C)C(=O)O)ccc1C(C)(C)C	<10 µM
CC(C)C[C@@]1(C(=O)O)C[C@@H](c2ccno2)[C@H](c2nccs2)N1C(=O)c1ccc(C(C)(C)C)cc1	<50 µM
COc1cc(C(=O)N2[C@@H](c3nccs3)[C@H](C#N)C[C@@]2(CC(C)C)C(=O)O)ccc1C(C)(C)C	<10 µM
Cc1ccc(C(=O)NCCCn2ccnc2)c(Nc2ccc3cn[nH]c3c2)n1	<1 µg/mL
O=C(O)c1cnn2c(C3CCCCC3)c(-c3ccc(-c4ccoc4)cc3)cnc12	1–10 µM
CC(C)C[C@@]1(C(=O)O)C=C(C(=O)NCC(=O)O)[C@H](c2nccs2)N1C(=O)c1ccc(C(C)(C)C)cc1	<50 µM
O=C(O)c1cnn2c(C3CCCCC3)c(-c3ccc(Cc4ccccc4)cc3)cnc12	1–10 µM
Cc1ccc(C(=O)NC(C)C)c(Nc2ccc3[nH]ncc3c2)n1	<1 µg/mL
O=C(O)[C@H](Cc1ccccc1)N(C(=O)c1ccc(-c2ccc(Cl)cc2Cl)o1)C(=O)c1ccc(Cl)cc1Cl	<5 µM
O=C(O)c1cnn2c(C3CCCCC3)c(-c3cccc(OCc4ccc(OC(F)(F)F)c(Cl)c4)c3)cnc12	>10 µM
CC(C)C[C@@]1(C(=O)O)C[C@@H](C#N)[C@H](c2nccs2)N1C(=O)c1ccc(C(C)(C)C)c(Cl)c1	<10 µM
O=C(O)C(Cc1ccccc1)N(Cc1cc(-c2cccc(F)c2)cs1)C(=O)c1ccc(Cl)cc1Cl	<5 µM
CC(C)CC(=O)Nc1cnn2c(C3CCCCC3)c(-c3ccc(OCc4ccccc4)cc3)cnc12	>10 µM
CC(C)C[C@@]1(C(=O)O)C[C@@H](c2ncns2)[C@H](c2nccs2)N1C(=O)c1ccc(C(C)(C)C)cc1	<50 µM
c1cncc(COc2cccc(-c3cnc4c(-c5nn[nH]n5)cnn4c3C3CCCCC3)c2)c1	1–10 µM
C[N+]1(C)CCN(/N=C\c2ccc(O)c(O)c2O)CC1	30–40 µM